Sequences and labels used below:
B1: GST-DLG1 PDZ domain 1 (protein)
chain: MSPILGYWKIKGLVQPTRLLLEYLEEKYEEHLYERDEGDKWRNKKFELGLEFPNLPYYIDGDVKLTQSMAIIRYIADKHNMLGGCPKERAEISMLEGAVLDIRYGVSRIAYSKDFETLKVDFLSKLPEMLKMFEDRLCHKTYLNGDHVTHPDFMLYDALDVVLYMDPMCLDAFPKLVCFKKRIEAIPQIDKYLKSSKYIAWPLQGWQATFGGGDHPPKSDLIEGRIQVNGTDADYEYE[about 80 residues not printed]
B2: GST-KIAA0316 PDZ domain 1 (protein)
chain: MSPILGYWKIKGLVQPTRLLLEYLEEKYEEHLYERDEGDKWRNKKFELGLEFPNLPYYIDGDVKLTQSMAIIRYIADKHNMLGGCPKERAEISMLEGAVLDIRYGVSRIAYSKDFETLKVDFLSKLPEMLKMFEDRLCHKTYLNGDHVTHPDFMLYDALDVVLYMDPMCLDAFPKLVCFKKRIEAIPQIDKYLKSSKYIAWPLQGWQATFGGGDHPPKSDLIEGRIPPAPRKVEMRRDPVLGFGFVAGSEKPVVVRSVTPGGPSEGKLIPGDQIVMINDEPVSAAPRERVIDLVRSCKESILLTVIQPYPSPK
B3: GST-FLJ11215 PDZ domain 1 (protein)
chain: MSPILGYWKIKGLVQPTRLLLEYLEEKYEEHLYERDEGDKWRNKKFELGLEFPNLPYYIDGDVKLTQSMAIIRYIADKHNMLGGCPKERAEISMLEGAVLDIRYGVSRIAYSKDFETLKVDFLSKLPEMLKMFEDRLCHKTYLNGDHVTHPDFMLYDALDVVLYMDPMCLDAFPKLVCFKKRIEAIPQIDKYLKSSKYIAWPLQGWQATFGGGDHPPKSDLIEGREGHSHPRVVELPKTEEGLGFNIMGGKEQNSPIYISRIIPGGIADRHGGLKRGDQLLSVNGVSVEGEHHEKAVELLKAAQGKVKLVVRYTPKVLEEME
B4: GST-SSTRIP PDZ domain 1 (protein)
chain: MSPILGYWKIKGLVQPTRLLLEYLEEKYEEHLYERDEGDKWRNKKFELGLEFPNLPYYIDGDVKLTQSMAIIRYIADKHNMLGGCPKERAEISMLEGAVLDIRYGVSRIAYSKDFETLKVDFLSKLPEMLKMFEDRLCHKTYLNGDHVTHPDFMLYDALDVVLYMDPMCLDAFPKLVCFKKRIEAIPQIDKYLKSSKYIAWPLQGWQATFGGGDHPPKSDLIEGRLKEKTVLLQKKDSEGFGFVLRGAKAQTPIEEFTPTPAFPALQYLESVDEGGVAWRAGLRMGDFLIEVNGQNVVKVGHRQVVNMIRQGGNTLMVKVVMVTRHPDMDEAVQ
B5: GST-Syntrophin gamma 1 PDZ domain 1 (protein)
chain: MSPILGYWKIKGLVQPTRLLLEYLEEKYEEHLYERDEGDKWRNKKFELGLEFPNLPYYIDGDVKLTQSMAIIRYIADKHNMLGGCPKERAEISMLEGAVLDIRYGVSRIAYSKDFETLKVDFLSKLPEMLKMFEDRLCHKTYLNGDHVTHPDFMLYDALDVVLYMDPMCLDAFPKLVCFKKRIEAIPQIDKYLKSSKYIAWPLQGWQATFGGGDHPPKSDLIEGREPFYSGERTVTIRRQTVGGFGLSIKGGAEHNIPVVVSKISKEQRAELSGLLFIGDAILQINGINVRKCRHEEVVQVLRNAGEEVTLTVSFLKRAPAFLKLP
B6: GST-FLJ00011 PDZ domain 1 (protein)
chain: MSPILGYWKIKGLVQPTRLLLEYLEEKYEEHLYERDEGDKWRNKKFELGLEFPNLPYYIDGDVKLTQSMAIIRYIADKHNMLGGCPKERAEISMLEGAVLDIRYGVSRIAYSKDFETLKVDFLSKLPEMLKMFEDRLCHKTYLNGDHVTHPDFMLYDALDVVLYMDPMCLDAFPKLVCFKKRIEAIPQIDKYLKSSKYIAWPLQGWQATFGGGDHPPKSDLIEGRKNPSGELKTVTLSKMKQSLGISISGGIESKVQPMVKIEKIFPGGAAFLSGALQAGFELVAVDGENLEQVTHQRAVDTIRRAYRNKAREPMELVVRVPGPSPRPSPSD
B7: GST-ZO-2 PDZ domain 1 (protein)
chain: MSPILGYWKIKGLVQPTRLLLEYLEEKYEEHLYERDEGDKWRNKKFELGLEFPNLPYYIDGDVKLTQSMAIIRYIADKHNMLGGCPKERAEISMLEGAVLDIRYGVSRIAYSKDFETLKVDFLSKLPEMLKMFEDRLCHKTYLNGDHVTHPDFMLYDALDVVLYMDPMCLDAFPKLVCFKKRIEAIPQIDKYLKSSKYIAWPLQGWQATFGGGDHPPKSDLIEGRLIWEQYTVTLQKDSKRGFGIAVSGGRDNPHFENGETSIVISDVLPGGPADGLLQENDRVVMVNGTPMEDVLHSFAVQQLRKSGKVAAIVVKRPRKV
B8: GST-RGS12 PDZ domain 1 (protein)
chain: MSPILGYWKIKGLVQPTRLLLEYLEEKYEEHLYERDEGDKWRNKKFELGLEFPNLPYYIDGDVKLTQSMAIIRYIADKHNMLGGCPKERAEISMLEGAVLDIRYGVSRIAYSKDFETLKVDFLSKLPEMLKMFEDRLCHKTYLNGDHVTHPDFMLYDALDVVLYMDPMCLDAFPKLVCFKKRIEAIPQIDKYLKSSKYIAWPLQGWQATFGGGDHPPKSDLIEGRRPSPPRVRSVEVARGRAGYGFTLSGQAPCVLSCVMRGSPADFVGLRAGDQILAVNEINVKKASHEDVVKLIGKCSGVLHMVIAEGVGRFESCS
B9: GST-HEMBA 1003117 #226.2 PDZ domain 1 (protein)
chain: MSPILGYWKIKGLVQPTRLLLEYLEEKYEEHLYERDEGDKWRNKKFELGLEFPNLPYYIDGDVKLTQSMAIIRYIADKHNMLGGCPKERAEISMLEGAVLDIRYGVSRIAYSKDFETLKVDFLSKLPEMLKMFEDRLCHKTYLNGDHVTHPDFMLYDALDVVLYMDPMCLDAFPKLVCFKKRIEAIPQIDKYLKSSKYIAWPLQGWQATFGGGDHPPKSDLIEGREDFCYVFTVELERGPSGLGMGLIDGMHTHLGAPGLYIQTLLPGSPAAADGRLSLGDRILEVNGSSLLGLGYLRAVDLIRHGGKKMRFLVAKSDVETAKKI
B10: GST-KIAA1284 PDZ domain 1 (protein)
chain: MSPILGYWKIKGLVQPTRLLLEYLEEKYEEHLYERDEGDKWRNKKFELGLEFPNLPYYIDGDVKLTQSMAIIRYIADKHNMLGGCPKERAEISMLEGAVLDIRYGVSRIAYSKDFETLKVDFLSKLPEMLKMFEDRLCHKTYLNGDHVTHPDFMLYDALDVVLYMDPMCLDAFPKLVCFKKRIEAIPQIDKYLKSSKYIAWPLQGWQATFGGGDHPPKSDLIEGRKDVNVYVNPKKLTVIKAKEQLKLLEVLVGIIHQTKWSWRRTGKQGDGERLVVHGLLPGGSAMKSGQVLIGDVLVAVNDVDVTTENIERVLSCIPGPMQVKLTFENAYDVKRET

The values below come from patent US20070099199A1.

The first assay deals with HPV E6 #16 PDZ ligand peptide (C-terminal peptide of the E6 protein of HPV 16) (HPV 16). Description: G assay ELISA, immobilised GST-PDZ, biotin peptide 10 uM.
Consider B1, for which the Ave OD came to 1.09 A450 nm and the OD S/N (ratio to GST-only well) was found to be 4.18.

Consider B2, for which the OD S/N (ratio to GST-only well) was 2.56.

For B3, the OD S/N (ratio to GST-only well) stood at 2.74.

On to B4, for which the OD S/N (ratio to GST-only well) came out at 3.28.

Consider B5, for which the OD S/N (ratio to GST-only well) was found to be 3.08.

Consider B6, for which the OD S/N (ratio to GST-only well) worked out at 3.97.

Consider B7, for which the Ave OD turned out to be 0.622 A450 nm and the OD S/N (ratio to GST-only well) came out at 2.56.

Regarding B8, the OD S/N (ratio to GST-only well) came to 4.64.

As for B9, the Ave OD worked out at 0.477 A450 nm and the OD S/N (ratio to GST-only well) was 2.27.

For the molecule B10, the OD S/N (ratio to GST-only well) came out at 2.72.

In another assay the target is HPV16 E6 C-terminal PDZ ligand (PL) peptide, biotinylated (human papillomavirus type 16). Description: G assay ELISA; immobilised GST-PDZ, biotin-peptide 10 uM.
Turning to B2, the Ave OD worked out at 0.343 A450 nm and the OD S/N (ratio vs GST only) stood at 2.34.

With B3, the Ave OD worked out at 0.449 A450 nm and the OD S/N (ratio vs GST only) is 2.77.

In the case of B5, the Ave OD was found to be 0.358 A450 nm and the OD S/N (ratio vs GST only) came out at 2.

With B7, the Ave OD turned out to be 0.342 A450 nm and the OD S/N (ratio vs GST only) turned out to be 2.11.

Regarding B8, the Ave OD is 0.429 A450 nm and the OD S/N (ratio vs GST only) amounted to 3.96.
